No end group written: not given here.
Each substance was assayed on Staphylococcus xylosus. Settings: LD50/MIC; LD50 of 128 used where LD50 above measured range; parentheses: MTC established but no LD50.
Method: The minimum inhibitory concentration (MIC) of the peptides was carried out by way of example against gram(−) E. coli DH5α (and gram(+) Staphylococcus xylosus (both Deutsche Sammlung von Mikroorganismen and Zellkulturen, DSMZ) in a standardized microdilution method according to the general guidelines of the CLSI (Clinical and Laboratory Standards Institute 2006) and EUCAST (European Committee for Antimicrobial Susceptibility Testing of the European Society of Clinical Microbiology and Infectious Diseases 2003) with slight adaptations to the investigation of cationic antimicrobial peptides (Wiegand et al. 2008). The bacteria cells were cultivated in Mueller-Hinton-Boullion (MHB) to an optical density of 0.4 to 0.6 at 600 nm wavelength, corresponding to about 4·10^8 bacteria per ml. Then, the bacteria cultures were diluted to a bacteria concentration of about 1·10^5 bacteria per ml in sterile MHB. Using the peptides, series of 2-fold dilutions starting at 128 μM to the smallest dilution of 0.5 μM in MHB were prepared. The peptide dilutions were mixed with the dilute bacteria cultures in a […] in the chambers of a 96-well polypropylene microtiter plate (Starlab, Hamburg, Germany), so that the peptides were present in an end concentration between 64 μM and 0.25 μM at a bacteria concentration of 5·10^4 bacteria/ml. Sterile MHB served as negative control, and the positive control used as the corresponding bacteria concentration in MHB without the addition of peptide. The microtiter plates were incubated for 18 hours at 37° C. with shaking at 120 rpm in a climatically controlled chamber. After the incubation, the bacteria concentration was determined by renewed absorption measurement at a wavelength of 600 nm.

Substance | Therapeutic ratio S. xylosus
KILILIKRK-OH [N4] | 3.6
MPRRRRSSSRPVRRRRRPRVSRRRRRRGGRRR (Protamine) | (256)
KRKRKILILIKRK-OH [N1] | 72

Source: patent publication US10556926B2, “Synthetic artificial peptides with antimicrobial effect” (priority 2014, dated 2020)
